Measurements taken from patent US8193224B2, “Medicinal composition for prevention or treatment of parasitic protozoan infection” (Fujifilm Corporation, priority 2004, dated 2012).

Tests used:
Assay type in all cases: cell-based
[1] = tested on: Plasmodium falciparum K1 strain; experiment: Chloroquine resistant-Plasmodium falciparum growth inhibition screening test; conditions: chemotherapy index = EC50 rat L6 cells / EC50 chloroquine resistant P. falciparum
Protocol: In the present example, protozoa of Plasmodium falciparum K1 strain was used. RPMI-1640 medium sterilized with a filter to which human serum was added to be 5%, was used in the experiment. Malarial parasites were cultured under 3% O2 concentration, 4% Co2 concentration, 93% N2 concentration, and at a temperature of 37° C.
The compounds of the present invention to be used in the present test and the positive target drug (chloroquine) were dissolved in DMSO to make a test solution of a predetermined concentration. Cultured malarial parasite infected-erythrocytes were collected by centrifugation, and diluted with non-infected erythrocyte so that the early infection rate is 0.15%. Hematocrit level at that time was 2.5%. 200 μL of malaria infected solution was added to wells of a 96-well culture plate, and adjusted by adding a test solution containing drug of a predetermined concentration or a drug-free DMSO. Test solutions were taken by duplicates. After culturing for 48 hours at 37° C., 0.5 μCi radioactive tritium (3H)-labeled hypoxanthine was added to each well. After further culturing for 24 hours under the same conditions, it was collected on a glass fiber filter and washed with distilled water. Radiation intensity was measured with a beta plate liquid scintillation counter (Wallac), and malarial parasite infection rates of the test solution added group and of the control group were calculated. Growth inhibition rate was calculated with the following formula based on the malarial parasite infection rate obtained in the above, to obtain a 50% growth inhibition concentration (EC50). Growth inhibition rate (%)={1−(b−a)/(c−a)}×100 a: early infection rate b: infection rate when test solution was added c: infection rate of the control

[2] = tested on: Trypanosoma brucei rhodensiense (STIB 900 strain); experiment: African trypanosome protozoa growth inhibition screening test; conditions: chemotherapy index = EC50 rat L6 cells / EC50 African trypanosome protozoa
[3] = tested on: Leishmania donovani (MHOM/ET/67/L82 strain); experiment: Leishmania protozoa growth inhibition screening test; conditions: chemotherapy index = EC50 rat L6 cells / EC50 leishmania protozoa

| Structure (SMILES) | Selective toxicity [1] | Selective toxicity [2] | Selective toxicity [3] |
| --- | --- | --- | --- |
| CCn1c(=Cc2cc[n+](CC)c3ccccc23)sc(=CC=C2C=Cc3ccccc3N2C)c1=O [A-14] | 67 | 220 | 46 |
| CCn1c(=Cc2oc3ccccc3[n+]2CC)sc(=CC=C2N(C)c3ccccc3C2(C)C)c1=O [A-8] | 130 | 6.0 | 32 |
| CCn1c(=Cc2sc3c4ccccc4ccc3[n+]2CC)sc(=CC=C2SCCN2C)c1=O [A-9] | 110 | 58 | 350 |
| C=CCn1c(=Cc2oc3ccccc3[n+]2C)sc(=CC=C2Sc3ccccc3N2C)c1=O [A-13] | – | 120 | 280 |
| CCn1c(=Cc2cccc[n+]2C)sc(=CC=C2Sc3ccccc3N2C)c1=O.Cc1ccc(S(=O)(=O)[O-])cc1 [A-4] | 660 | 190 | – |
